Measured values as given in publication PMC9693223, “The Trypanosoma cruzi TcrNT2 Nucleoside Transporter Is a Conduit for the Uptake of 5-F-2′-Deoxyuridine and Tubercidin Analogues” (Molecules, 2022).

Legend:
[1] = system: L. mexicana Cas9^ΔNT1+TcrNT2 promastigotes; assay: Alamar blue drug sensitivity assay, L. mexicana Cas9^ΔNT1+TcrNT2 promastigotes; format: cell-based, Leishmania mexicana; conditions: Cas9^ΔNT1+TcrNT2 in comparison to L. mexicana Cas9^ΔNT1
Source text: (§1) We used L. mexicana promastigotes of the Cas9 strain developed by Beneke at al. to generate the ΔNT1 strain, and from there the Cas9^ΔNT1+TcrNT2 (see below); The original Cas9 strain was generously donated by Prof. Eva Gluenz (University of Bern, Switzerland). All strains in standard HOMEM (GIBCO, Life Technologies, Paisley, UK) supplemented with 10% heat-inactivated fetal bovine serum (FBS; PAA Laboratories, Linz, Austria) and 1% of a penicillin–streptomycin solution (10,000 U mL^−1 each; Life Technologies) at 25 °C, as described.
(§2) The Alamar blue assay (resazurin sodium salt) was used to determine the drug sensitivity of the L. mexicana promastigotes in vitro. The assay is based on the reduction of resazurin sodium salt (blue and non-fluorescent) to resorufin (pink color and fluorescent) by live cells. HOMEM medium with 10% FBS (100 μL) was added to all wells of a white 96-well plate apart from the first well. 200 μL of a known concentration of test compounds was diluted in HOMEM medium and placed in the first well. […] Fluorescence was measured in a FLUOstar OPTIMA plate reader (BMG Labtech, Germany), at a wavelength of 544 nm for excitation and 620 nm for emission. The EC50 values and fluorescence data were determined and plotted by the GraphPad Prism 8 Software using an equation for a sigmoid curve with variable slope. […]

[2] = system: L. mexicana Cas9^ΔNT1 promastigotes; assay: Alamar blue drug sensitivity assay, L. mexicana Cas9^ΔNT1 promastigotes; format: cell-based, Leishmania mexicana; conditions: EC50 Cas9^ΔNT1 relative to L. mexicana Cas9
Source text: as §1, §2

[3] = system: L. mexicana Cas9^ΔNT1 promastigotes; parameters: method as in de Almeida Fiuza et al. [41]; conditions: EC50 Cas9^ΔNT1 relative to Cas9; starred values; ref de Almeida Fiuza et al. [41]; cited from earlier work

| SMILES | RF vs. ΔNT1 (resistance factor) [1] | RF vs. Cas9 (resistance factor) [2] | RF vs. Cas9 (resistance factor) [3] |
| --- | --- | --- | --- |
| Nc1ncnc2c1c(Br)cn2[C@@H]1O[C@H](CO)[C@@H](O)[C@H]1O [TH1003, 7-bromo-tubercidin] | 7.68 | 18.4 |  |
| Nc1ncnc2c1ccn2[C@@H]1O[C@H](CO)[C@@H](O)[C@H]1O [Tubercidin, tubercidin] |  | 60 | 25 and 25.2 |

Values joined by “and” are separate entries in the source; they are usually repeats but may differ in a detail not shown here. Equal entries are not always repeated. Where two headings read alike, the source gives them in different places.
